Results deposited as PubChem BioAssay AID624099 (ICCB-Longwood, 2012).
The deposit covers about 21,000 reagents; this is an unselected part. In the full data, 497 (2.4%) were called active. 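Higher z means weaker E2 silencing; only reporter increases were scored, and knock-downs that hurt cell survival may mask genuine repressor factors.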

- Test: 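Host factors E2 relies on to silence an HPV18 LCR reporter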 (primary screen)
- System: human C33A cervical carcinoma cells (HPV-negative) stably expressing BPV1 E2 and an HPV18 LCR luciferase reporter
- Reagent: siRNA pool against human genes, 40 nM
- Timing: 72 h
- Measurement: 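Per-well luciferase luminescence, z-scored on each plate against the plate mean and SD with control wells left out, then averaged across three replicate plates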
- Direction: mean z-score and z-score: higher = stronger reporter signal, weaker E2 silencing
- Rule for the call: 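Hit if mean z-score reaches 2 and two or more of three replicate z-scores also reach 2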

no.	Gene	mean z-score	z-score, replicate A	z-score, replicate B	z-score, replicate C	outcome
1	KDR (kinase insert domain receptor)	-0.01	0.19	-0.04	-0.18	inactive
2	SPSB2 (splA/ryanodine receptor domain and SOCS box containing 2)	0.22	0.24	0.01	0.4	inactive
3	CYSLTR2 (cysteinyl leukotriene receptor 2)	0.22	0.3	0.17	0.18	inactive
4	DDX11L2 (DEAD/H-box helicase 11 like 2 (pseudogene))	0.74	0.57	0.97	0.68	inactive
5	LMBR1L (limb development membrane protein 1 like)	1.06	0.99	1.36	0.82	inactive
6	RPL18AP16 (ribosomal protein L18a pseudogene 16)	0.83	0.6	0.48	1.4	inactive
7	APOBEC1 (apolipoprotein B mRNA editing enzyme catalytic subunit 1)	-0.96	-0.54	-1.27	-1.06	inactive
8	PDZRN4 (PDZ domain containing ring finger 4)	-0.05	-0.32	0	0.18	inactive
9	KRT81 (keratin 81)	-1.85	-2	-1.49	-2.07	inactive
10	SOFU1 (sperm-oocyte fusion factor 1)	-0.32	-0.03	-0.12	-0.8	inactive
11	NIFK (nucleolar protein interacting with the FHA domain of MKI67)	0.11	0.32	0.34	-0.33	inactive
12	MIR99AHG (mir-99a-let-7c cluster host gene)	-0.38	-0.43	-0.75	0.03	inactive
13	ASF1A (anti-silencing function 1A histone chaperone)	-0.77	-0.83	-0.62	-0.87	inactive
14	CDK2AP1 (cyclin dependent kinase 2 associated protein 1)	-1.24	-1.33	-1.1	-1.29	inactive
15	GEMIN5 (gem nuclear organelle associated protein 5)	1.11	1.04	1.08	1.2	inactive
16	AARSD1 (alanyl-tRNA synthetase domain containing 1)	0.79	0.57	0.71	1.09	inactive
17	SERPINE1 (serpin family E member 1)	2.05	2.69	1.73	1.73	inactive
18	SLC71A3P	-0.25	-0.38	-0.23	-0.13	inactive
19	CRYGB (crystallin gamma B)	2.4	2.22	2.68	2.3	active
20	GPR39 (G protein-coupled receptor 39)	1.11	0.89	1.49	0.96	inactive
21	AKR1D1 (aldo-keto reductase family 1 member D1)	2.26	2.72	2.07	1.97	active
22	GNA15 (G protein subunit alpha 15)	-1.18	-0.79	-1.35	-1.42	inactive
23	TNFSF12 (TNF superfamily member 12)	-0.13	-0.12	-0.23	-0.03	inactive
24	FAM225A (family with sequence similarity 225 member A)	-1.18	-1.41	-0.95	-1.18	inactive
25	FOLR3 (folate receptor gamma)	-0.28	-0.37	-0.17	-0.32	inactive
26	CRTAP (cartilage associated protein)	-0.52	-0.3	-0.61	-0.64	inactive
27	TPGS2 (tubulin polyglutamylase complex subunit 2)	0.52	0.57	0.57	0.41	inactive
28	QTRT2 (queuine tRNA-ribosyltransferase accessory subunit 2)	0.16	-0.23	0.22	0.5	inactive
29	ACY1 (aminoacylase 1)	0.91	0.99	0.66	1.07	inactive
30	SEPTIN12 (septin 12)	-1.24	-1.19	-1.3	-1.23	inactive
31	PHC3 (polyhomeotic homolog 3)	0.01	0.18	-0.14	-0.01	inactive
32	STX4 (syntaxin 4)	-0.49	-0.17	-0.6	-0.7	inactive
33	SLC18B1	0.93	0.55	1.05	1.19	inactive
34	DKFZP586K1520 (retired record)	-0.1	-0.42	-0.03	0.14	inactive
35	THAP10 (THAP domain containing 10)	0.78	0.86	0.75	0.72	inactive
36	EFCAB5 (EF-hand calcium binding domain 5)	0.1	-0.14	0.25	0.19	inactive
37	SS18L1 (SS18L1 subunit of BAF chromatin remodeling complex)	0.22	0.17	0.12	0.36	inactive
38	CALCOCO1 (calcium binding and coiled-coil domain 1)	0.91	1.14	1.19	0.39	inactive
39	ACBD3 (acyl-CoA binding domain containing 3)	-0.46	-0.39	-0.35	-0.64	inactive
40	SPATA20 (spermatogenesis associated 20)	-0.24	-0.19	0.01	-0.55	inactive
41	ATP4B (ATPase H+/K+ transporting subunit beta)	0.04	-0.07	0.32	-0.13	inactive
42	ZNF629 (zinc finger protein 629)	0.63	0.56	0.8	0.53	inactive
43	FAM151B (family with sequence similarity 151 member B)	0.56	0.93	0.67	0.07	inactive
44	RPL13A (ribosomal protein L13a)	-2.49	-2.24	-2.5	-2.71	inactive
45	VIT (vitrin)	-0.36	-0.15	-0.39	-0.54	inactive
46	DCC (DCC netrin 1 receptor)	-0.54	-0.55	-0.48	-0.6	inactive
47	PEAK1 (pseudopodium enriched atypical kinase 1)	-0.29	-0.38	-0.3	-0.2	inactive
48	CYP4A11 (cytochrome P450 family 4 subfamily A member 11)	0.27	0.68	0.05	0.08	inactive
49	SSX9P (SSX family member 9, pseudogene)	-0.4	-0.26	-0.62	-0.3	inactive
50	CHST9 (carbohydrate sulfotransferase 9)	-0.4	-0.37	-0.21	-0.61	inactive
51	CLDN1 (claudin 1)	-0.42	-0.5	-0.37	-0.39	inactive
52	TUT4 (terminal uridylyl transferase 4)	-0.46	-0.62	-0.53	-0.24	inactive
53	TULP1 (TUB like protein 1)	-0.02	0.33	-0.14	-0.26	inactive
54	MFSD6L (major facilitator superfamily domain containing 6 like)	0.17	-0.08	0.31	0.29	inactive
55	PAX8 (paired box 8)	-0.16	-0.22	0.01	-0.27	inactive
56	DNAJC12 (DnaJ heat shock protein family (Hsp40) member C12)	0.01	0.4	-0.39	0.02	inactive
57	MMD2 (monocyte to macrophage differentiation associated 2)	0.76	0.93	0.69	0.67	inactive
58	ZNF767P (zinc finger family member 767, pseudogene)	0.14	0.27	0.35	-0.21	inactive
59	PPP2R1A (protein phosphatase 2 scaffold subunit Aalpha)	1.51	1.45	1.5	1.57	inactive
60	TERT (telomerase reverse transcriptase)	0.55	0.4	0.64	0.6	inactive
61	MATN2 (matrilin 2)	-1.6	-1.35	-1.73	-1.71	inactive
62	ZCCHC24 (zinc finger CCHC-type containing 24)	0.56	0.78	0.46	0.45	inactive
63	SLC27A1	-0.54	-0.29	-0.97	-0.37	inactive
64	LINC01619 (long independently transcribed non-coding RNA 1619)	-0.09	0.06	-0.08	-0.24	inactive
65	COX7A2 (cytochrome c oxidase subunit 7A2)	-2.02	-2.09	-1.81	-2.16	inactive
66	SIMC1 (SUMO interacting motifs containing 1)	0.09	0.05	0.06	0.16	inactive
67	ENAM (enamelin)	-0.01	-0.42	-0.09	0.47	inactive
68	FOXH1 (forkhead box H1)	0.29	0.1	0.29	0.47	inactive
69	HBG2 (hemoglobin subunit gamma 2)	-1.7	-1.74	-1.68	-1.7	inactive
70	OSBP (oxysterol binding protein)	1.86	1.76	1.91	1.9	inactive
71	CCL2 (C-C motif chemokine ligand 2)	-0.39	-0.53	-0.68	0.05	inactive
72	LINC01148 (long independently transcribed non-coding RNA 1148)	-1.82	-1.81	-2.25	-1.4	inactive
73	TEX35 (testis expressed 35)	-1.16	-1.22	-1.21	-1.04	inactive

Called active (from the list above):
Gene	mean z-score	z-score, replicate A	z-score, replicate B	z-score, replicate C	outcome
CRYGB (crystallin gamma B)	2.4	2.22	2.68	2.3	active
AKR1D1 (aldo-keto reductase family 1 member D1)	2.26	2.72	2.07	1.97	active
